{"source": "PubChem BioAssay AID624099 (ICCB-Longwood, 2012)", "screen": "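Host factors E2 relies on to silence an HPV18 LCR reporter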 (primary screen)", "cell system": "human C33A cervical carcinoma cells (HPV-negative) stably expressing BPV1 E2 and an HPV18 LCR luciferase reporter", "knock-down reagent": "siRNA pool against human genes, 40 nM", "time to read-out": "72 h", "measurement": "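HPV18 LCR reporter light per well, converted to plate-wise z-scores that exclude control wells, and averaged over triplicate plates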", "scale": "mean z-score and z-score: higher = stronger reporter signal, weaker E2 silencing", "call rule": "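Mean z ≥ 2 together with z ≥ 2 in two or more of the three replicates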", "note": "This is a random part of about 21,000 reagents. 497 of all reagents (2.4%) count as active. 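Higher z means weaker E2 silencing; only reporter increases were scored, and knock-downs that hurt cell survival may mask genuine repressor factors.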"}
{"target": "MAPT", "mean z-score": -2.78, "z-score, replicate A": -3.02, "z-score, replicate B": -2.86, "z-score, replicate C": -2.44, "Outcome": "inactive"}
{"target": "GPD2", "mean z-score": 0.6, "z-score, replicate A": 0.68, "z-score, replicate B": 0.58, "z-score, replicate C": 0.53, "Outcome": "inactive"}
{"target": "FLOT1", "mean z-score": 0.94, "z-score, replicate A": 1.01, "z-score, replicate B": 1.17, "z-score, replicate C": 0.63, "Outcome": "inactive"}
{"target": "ENDOU", "mean z-score": -0.5, "z-score, replicate A": -0.74, "z-score, replicate B": -0.55, "z-score, replicate C": -0.21, "Outcome": "inactive"}
{"target": "ARL16", "mean z-score": 1.57, "z-score, replicate A": 1.89, "z-score, replicate B": 1.87, "z-score, replicate C": 0.94, "Outcome": "inactive"}
{"target": "LOC339685", "mean z-score": 0.31, "z-score, replicate A": 0.33, "z-score, replicate B": 0.27, "z-score, replicate C": 0.34, "Outcome": "inactive"}
{"target": "ABTB2", "mean z-score": 0.18, "z-score, replicate A": 0.29, "z-score, replicate B": 0.13, "z-score, replicate C": 0.11, "Outcome": "inactive"}
{"target": "TKFC", "mean z-score": 0.67, "z-score, replicate A": 1.02, "z-score, replicate B": 0.08, "z-score, replicate C": 0.91, "Outcome": "inactive"}
{"target": "SFPQ", "mean z-score": 2.63, "z-score, replicate A": 2.23, "z-score, replicate B": 2.19, "z-score, replicate C": 3.47, "Outcome": "active"}

Reagents above marked active:
{"target": "SFPQ", "mean z-score": 2.63, "z-score, replicate A": 2.23, "z-score, replicate B": 2.19, "z-score, replicate C": 3.47, "Outcome": "active"}

The results go on.
{"target": "ZDHHC11", "mean z-score": -0.18, "z-score, replicate A": 0.07, "z-score, replicate B": -0.48, "z-score, replicate C": -0.14, "Outcome": "inactive"}
{"target": "DNAJC8", "mean z-score": 0.66, "z-score, replicate A": 0.65, "z-score, replicate B": 0.9, "z-score, replicate C": 0.44, "Outcome": "inactive"}
{"target": "PRXL2B", "mean z-score": 0.62, "z-score, replicate A": 0.71, "z-score, replicate B": 0.42, "z-score, replicate C": 0.74, "Outcome": "inactive"}
{"target": "GDF10", "mean z-score": 0.41, "z-score, replicate A": 0.84, "z-score, replicate B": 0.24, "z-score, replicate C": 0.16, "Outcome": "inactive"}
{"target": "TNXB", "mean z-score": -0.48, "z-score, replicate A": -0.58, "z-score, replicate B": -0.31, "z-score, replicate C": -0.56, "Outcome": "inactive"}
